pIC50: −log10 of the molar value. Where “and” joins values, the source holds several entries; their conditions need not be identical. Identical values can stand only once. Like-named read-outs stand apart in the source and are kept apart here. Only a part of the results on these compounds is given; other tests are left out. Where only a bound is given, the exact number is not on record here.

The test system of one data set is HIV-1RF. Briefly: Acute Infection Assay, HIV core antigen ELISA in C8166 cells. The format is cell-based, human immunodeficiency virus.
A further data set concerns uninfected cells. In words: Toxicity Assay, 14C protein hydrolysate uptake, 72 hours. The conditions noted are these: read-out: CC50 (Toxicity), Table 11.2, unit inferred.
Data set [1] relates to Chronically infected cells (H9rf). In words: Chronically Infected Cell Assay, HIV-1 antigen ELISA. The format is cell-based. The conditions noted are these: Table 11.2, Against chronically infected cells. For orientation: In an ELISA, binding on a coated surface is turned into a signal by an enzyme label.
The test system of the next data set is HIV-1IIIB. Briefly: Acute infection assay against HIV-1IIIB. The format is cell-based, human immunodeficiency virus.
Setting [2] is: Table 11.2, Against HIV-1RF, single assays.
[3] abbreviates: read-out: IC50 (Antiviral), Table 11.2, Against HIV-1RF, single assays, no unit printed (tested 200µM to 0.2µM).
Setting [4] is: section Against HIV-1RF, single assays.

Consider `O=[N+]([O-])c1cc([N+](=O)[O-])c(O)c([N+](=O)[O-])c1`, for which the pIC50 was > 6.70 with HIV-1RF (Table 10, 50% reduction in HIV core antigen levels) and 4.42 in the data set on HIV-1RF (setting [3]). Moreover, the TI with HIV-1RF (Table 10, therapeutic index, CD50 divided by IC50) is given as >475. Moreover, in the data set on HIV-1RF (setting [2]), the SI (Selectivity Index) came out at 2. The CC50 in the data set with uninfected cells (setting [4]) amounted to 67 µM.

Take `O=[N+]([O-])c1cc([N+](=O)[O-])c(Cl)c([N+](=O)[O-])c1`: the SI (Selectivity Index) in data set [1] (Average) is 6; in data set [1] (single assays), 8 and 6; in the data set with HIV-1RF (Table 11.2, Against HIV-1RF, Average), 12; in the data set on HIV-1RF (setting [2]) it was 10; in the data set on HIV-1IIIB (Table 11.2, Average), 9; in the data set on HIV-1IIIB (Table 11.2, single assays) it was 7 and 11.6. Moreover, the pIC50 is 5.82 in data set [1] (read-out: IC50 (Antiviral), Average, unit inferred); 6.30 in the data set with HIV-1RF (read-out: IC50 (Antiviral), Table 11.2, Against HIV-1RF, Average, unit inferred); 6.22 and 6.40 with HIV-1RF (setting [3]); 6.10 in the data set with HIV-1IIIB (read-out: IC50 (Antiviral), Table 11.2, Average, unit inferred); 6.00 and 6.22 in the data set on HIV-1IIIB (read-out: IC50 (Antiviral), Table 11.2, single assays, unit inferred). In addition, the 50% cytotoxic concentration (CC50) was 7 µM in the data set with uninfected cells (section Against HIV-1IIIB, Average); 7 µM in the data set on uninfected cells (section Against HIV-1IIIB, single assays); 6 µM with uninfected cells (section Against HIV-1RF, Average); 7 µM and 5 µM in the data set on uninfected cells (setting [4]).

As a reminder, the pIC50 is the negative decadic logarithm of the IC50, by convention in mol/L. As usually defined, the CC50 is the concentration at which the toxic effect on the cells reaches its halfway point.

For the origin of these results see patent EP1016405A2, “Arylating medicaments” (Radopath Pharmaceuticals International Limited, priority 1993, dated 1994).
